Our source for the Activity values is ChEMBL document CHEMBL3407459, “Synthesis and antimicrobial activity of novel structural hybrids of benzofuroxan and benzothiazole derivatives” (2015).

SMILES strings stand for the structures. The source made the active and inactive calls. The calls are words filed in the database; no cut-off is given here.

The subject of experiment [1] is Escherichia coli. Description: Antibacterial activity against Escherichia coli MG1655 harboring pIbpA-lux assessed as protein damage at <10^-3 to 10^-4 M measured for 2 hrs by luminometric analysis. Particulars: K-12 substr. MG1655.
Experiment [2] has as its system Escherichia coli. In words: Antibacterial activity against Escherichia coli MG1655 harboring pKatG-lux assessed as production of hydroperoxides at <10^-3 to 10^-4 M measured for 2 hrs by luminometric analysis. Conditions: K-12 substr. MG1655.
The subject of experiment [3] is Escherichia coli. Description: Antibacterial activity against Escherichia coli MG1655 harboring pColD-lux assessed as DNA damage at <10^-3 to 10^-4 M measured for 2 hrs by luminometric analysis in presence of S9 fraction. Particulars: K-12 substr. MG1655.
In experiment [4] the test system is Escherichia coli. Description: Antibacterial activity against Escherichia coli MG1655 harboring pSoxS-lux assessed as increase of intracellular superoxide anion radical and nitrogen oxide level at <10^-3 to 10^-4 M measured for 2 hrs by luminometric analysis. Conditions: K-12 substr. MG1655.
Experiment [5] has as its system Escherichia coli. Description: Antibacterial activity against Escherichia coli MG1655 harboring pGrpE-lux assessed as protein damage at <10^-3 to 10^-4 M measured for 2 hrs by luminometric analysis. Particulars: K-12 substr. MG1655.
Experiment [6] deals with Escherichia coli. Description: Antibacterial activity against Escherichia coli MG1655 harboring pRecA-lux assessed as DNA damage at <10^-3 to 10^-4 M measured for 2 hrs by luminometric analysis in absence of S9 fraction. Conditions: K-12 substr. MG1655.
For experiment [7], the system named is Escherichia coli. Description: Antibacterial activity against Escherichia coli MG1655 harboring pColD-lux assessed as DNA damage at <10^-3 to 10^-4 M measured for 2 hrs by luminometric analysis in absence of S9 fraction. Conditions: K-12 substr. MG1655.
A short description of experiment [8]: Activation of quorum sensing system luxR in Escherichia coli MG1655 harboring pVFR1-lux at <10^-3 to 10^-4 M measured for 2 hrs by luminometric analysis. Conditions: Escherichia coli str. K-12 substr. MG1655.
Experiment [9] has as its system Vibrio sp. Description: Antibacterial activity against Vibrio aqamarinus VKPM B-11245 at <10^-3 to 10^-4 M measured for 2 hrs by luminometric analysis.
Experiment [10] concerns Escherichia coli. Description: Antibacterial activity against Escherichia coli MG1655 harboring pXen7 at <10^-3 to 10^-4 M measured for 2 hrs by luminometric analysis. Particulars: K-12 substr. MG1655.
The test system of experiment [11] is Escherichia coli. In words: Antibacterial activity against Escherichia coli MG1655 harboring pRecA-lux assessed as DNA damage at <10^-3 to 10^-4 M measured for 2 hrs by luminometric analysis in presence of S9 fraction. Particulars: K-12 substr. MG1655.
The test system of experiment [12] is Vibrio sp. In words: Antibacterial activity against Vibrio aqamarinus VKPM B-11245 at 10^-3 to 10^-7 M measured for 2 hrs by luminometric analysis.

As for `O=[N+]([O-])c1ccc2sc(Nc3c([N+](=O)[O-])cc([N+](=O)[O-])c4no[n+]([O-])c34)nc2c1`, the result in experiment [1], in [2], in experiment [3], in [4], in experiment [5] and in experiment [6] was inactive. For the same molecule, the outcome in [7], in [8], in [9], in [10] and in experiment [11] was inactive.

With `Cc1ccc2nc(Nc3c([N+](=O)[O-])cc([N+](=O)[O-])c4no[n+]([O-])c34)sc2c1`, the result in experiment [1], in experiment [2], in [3], in experiment [4], in [5] and in experiment [6] was inactive. The result in [7], in experiment [8], in [9], in [10] and in [11] was inactive.

On to `O=[N+]([O-])c1cc([N+](=O)[O-])c2no[n+]([O-])c2c1/N=c1\sc2cc(Cl)ccc2n1-c1c([N+](=O)[O-])cc([N+](=O)[O-])c2no[n+]([O-])c12`, for which the outcome in experiment [1], in experiment [2], in experiment [3], in [4], in experiment [5] and in experiment [6] was inactive. The result in [7], in [8], in [9], in experiment [10] and in experiment [11] was inactive.

Consider `O=[N+]([O-])c1cc([N+](=O)[O-])c2no[n+]([O-])c2c1Nc1nc2ccccc2s1`, for which the result in [1], in experiment [2], in [3], in experiment [4], in [5] and in experiment [6] was inactive. In addition, the result in experiment [7], in experiment [8], in [9], in experiment [10] and in experiment [11] was inactive.

Consider `COc1cccc2sc(Nc3c([N+](=O)[O-])cc([N+](=O)[O-])c4no[n+]([O-])c34)nc12`, for which the outcome in [1], in experiment [3], in experiment [4], in experiment [5], in experiment [6] and in [7] was inactive. Besides, the outcome in experiment [8], in experiment [10] and in experiment [11] was inactive. The outcome in [12] was Active.

For the molecule `CCOc1ccc2nc(Nc3c([N+](=O)[O-])cc([N+](=O)[O-])c4no[n+]([O-])c34)sc2c1`, the outcome in [1], in experiment [2], in [3], in experiment [4], in [5] and in experiment [6] was inactive. Further, the outcome in experiment [7], in experiment [8], in [9], in experiment [10] and in [11] was inactive.
